# Experimental data as given in PMC3485190, “Crystal Structures of Lysine-Preferred Racemases, the Non-Antibiotic Selectable Markers for Transgenic Plants” (PLoS ONE, 2012).
# Legend:
# [1] = test system: NCCCC[C@H](N)C(=O)O; assay: purified protein; details: 100 mM CHES-NaOH pH 9.0, 30 µM PLP, 50°C
# [2] = test system: N=C(N)NCCC[C@H](N)C(=O)O; assay: purified protein; details: 100 mM CHES-NaOH pH 9.0, 30 µM PLP, 50°C
substance,measurement,setting,value
Lyr (lysine racemase) (Proteus mirabilis; S394Y/T391Y),kcat/Km,[1],75 M⁻¹ s⁻¹
same,kcat,[2],0.383 s⁻¹
